Data published in patent publication US10160756B2 (priority 2014, dated 2018).
Like-named read-outs stand apart in the source and are kept apart here.

Tested on: VSV-PY>A4
Conditions: 8 h post-infection

For `O=C(CN1CCCC(c2nc3ccccc3s2)C1)NC(=O)NCC(F)(F)F` (stereo not drawn) [Compound 1, 2-(3-(benzo[d]thiazol-2-yl)piperidin-1-yl)-N-((2,2,2-trifluoroethyl)carbamoyl) acetamide], the “reduction of budding of VSV-PY>A4” value (10 μM) was < 2 fold.

`Cc1nc2ccccc2nc1SCC(=O)NC(=O)Nc1ccccc1` [Compound 5, 2-((3-methylquinoxalin-2-yl)thio)-N-(phenylcarbamoyl)acetamide] was tested, and the “reduction of budding of VSV-PY>A4” value (0.1 μM) was < 2 fold and the “reduction of budding of VSV-PY>A4” value (0.5 μM) was < 2 fold.
